PubChem BioAssay AID1224833 | University of Georgia, 2016

- Assay: 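Human genes whose knock-down alters rotavirus replication in monkey cells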 (primary screen)
- Cells: monkey MA104 kidney cells
- Reagent: siRNA pool against human genes, 50 nM
- Time to read-out: 48 h knock-down before infection; read 24 h after infection
- Conditions: infection with rotavirus strain RV3 two days after transfection; infectious dose for this stage not given
- Measured: 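z-score of rotavirus antigen signal per well, from a fluorescent immunoassay, relative to non-targeting control wells on the same plate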
- Reading the numbers: z-score vs non-targeting control: higher = more rotavirus replication than with non-targeting control
- Active means: In these data the active calls have z-score vs non-targeting control at about -1 or lower, or at about 1 or higher
- Calls: active = z-score beyond 1 either way; inactive = z-score within 1 of zero
The whole screen tested about 12,000 reagents; below is a random part of them. About 5,600 of them (46%) count as active. 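Active calls cover z-scores past 1 in both directions, so they include lowered as well as raised rotavirus replication.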 Unmarked entries are inactive. Reagent sequences are not shown.

gene knocked down | z-score vs non-targeting control
FAM216A | -1.13 (active)
PHOSPHO1 | -0.696
RPL27A | 0.653
OR6Y1 | -1.6 (active)
PIGU | 1.29 (active)
TAF2 | 1.89 (active)
MTR | -0.564
SRD5A2 | -2.86 (active)
OR2A42 | -1.69 (active)
NPM3 | -0.135
OR14C36 | -1.42 (active)
CEP85L | 1.17 (active)
ATG14 | 0.311
AGXT | 1.55 (active)
MIER2 | -0.0586
FCN3 | -0.39
EMC9 | 0.822
COX16 | 0.95
ADH4 | -0.793
HES4 | -1.34 (active)
MRPL51 | -2.22 (active)
NKRF | -1.84 (active)
BTG2 | -1.13 (active)
KRTAP1-5 | -0.297
CLDN6 | -1.4 (active)
HSP90AA1 | -1.35 (active)
PELP1 | -1.49 (active)
AMN | 2.43 (active)
NBEA | -0.922
ZNF575 | 1.03 (active)
GPATCH4 | 0.74
DPH2 | 0.0272
DRC4 | 1.83 (active)
INTS4 | 1.39 (active)
SLC25A13 | 0.795
ZFP28 | 0.784
MAU2 | 1.07 (active)
CCDC184 | -0.484
POFUT1 | -0.901
YPEL1 | -0.721
STARD5 | -0.305
MN1 | -1.16 (active)
FUT3 | 0.978
OR5P2 | -1.63 (active)
FKTN | 0.76
ADAP1 | -0.516
CENPF | 0.0797
CDH5 | 0.118
NET1 | -0.479
DARS2 | 1 (active)
MTPN | -1.34 (active)
VEZF1 | -0.621
MAGEB4 | -0.534
FSIP2 | -1.64 (active)
ASXL1 | 0.705
KICS2 | -1.77 (active)
NFAM1 | -0.644
CCAR2 | -1.42 (active)
CALB2 | -2.15 (active)
ROM1 | -0.583
SOS1 | 2.5 (active)
CD58 | -0.413
REEP6 | -1.79 (active)
CERS3 | -1.65 (active)
STAG3 | -0.282
GATA2 | -1.87 (active)
MPHOSPH9 | -1.76 (active)
CRAMP1 | -1.93 (active)
PEX39 | 1.87 (active)
AP3S2 | 0.475
EOLA1 | -1.27 (active)
TTLL13 | -2.12 (active)
SVBP | 1.32 (active)
SMARCD2 | -0.984
ILDR2 | -1.01 (active)
MAN1A1 | 0.758
HMGN1 | 3.76 (active)
CCDC61 | 2.54 (active)
FURIN | 1.91 (active)
DGKZ | -1.96 (active)
BCL2L2 | 2.88 (active)
TREML1 | -0.685
SLC25A2 | -1.3 (active)
PCIF1 | -1.46 (active)
SH3PXD2B | 1.23 (active)
TSPAN12 | 0.127
ZNF470 | 0.977
PGM3 | 0.751
HSD11B1 | -0.758
HSF5 | -1.67 (active)
SIGLEC11 | 0.538
GDPD5 | -0.26
MIR1915HG | -2.28 (active)
AUH | -1.36 (active)
CCND3 | 1.21 (active)
PAX8 | -0.817
SLITRK2 | 1.04 (active)
CHST15 | -0.534
YTHDF3 | -1.17 (active)
NTSR2 | 0.648
OR6T1 | -0.198
UPP2 | 1.16 (active)
PDZD7 | -0.257
CD83 | 0.838
PCF11 | -0.988
COA7 | -0.702
KBTBD3 | 0.754
RIT1 | -2.1 (active)
SMPD1 | 0.786
CYBC1 | 1.46 (active)
